Experimental data: PubChem BioAssay AID504761 (Drosophila RNAi Screening Center, 2011)

Screen: 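Insect host genes that dengue virus relies on to spread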 (primary screen)
System: D.Mel-2 cells from Drosophila
Reagent: long dsRNA against Drosophila genes
Treatment: infection with dengue virus type 2; dose and infection time not stated
Measured: 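Cells stained for dengue envelope protein and imaged; percent of infected cells per well on duplicate plates, ranked by infection, with stained nuclei counted for cell number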
Direction: infection score: higher = more virus-infected cells; cell count: higher = more cells in the well
Active means: 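Very low infection ranking in both replicate wells (chance probability at most 0.065), then a retest showing infection dropped 1.5-fold or more at p below 0.05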
Calls: active = confirmed: knock-down lowers infection; inactive = not picked or not confirmed
In all, the deposit lists about 22,000 reagents; below is a random part of those that have a named target and a result. Over the whole deposit, 116 (0.52%) were called active. 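Calls depend on retest data that are not deposited; infection was ranked per plate without normalising between plates; the unit of the infection score is not given.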 Raw values vary from plate to plate and are shown uncorrected. A number with no mark means an inactive call. A plus sign joins genes that one reagent is predicted to hit. Not all columns of the deposit are shown. Reagent sequences are not shown. Not stated in the record: the amount of reagent, the time to read-out.

no.	predicted target	dsRNA	infection score, replicate 1	infection score, replicate 2	cell count, replicate 1
1	CG18622 (GeneID 42044)	DRSC15360	2.41	12.6	6422
2	CG11409 (GeneID 31078)	DRSC18579	2.09	3.63	5699
3	CG11409 (GeneID 31078)	DRSC28360	18.3	9.56	3559
4	CG12093 (GeneID 38343)	DRSC08252	11.2	21.2	6320
5	CG11699 (GeneID 32101)	DRSC19419	11	12	4916
6	CG11699 (GeneID 32101)	DRSC27489	9.24	14.9	6200
7	IP3K1 + hpRNA:CR18854	DRSC23313	0.73	11.1	6583
8	Rift (GeneID 43756)	DRSC14330	7.31	3.17	3748
9	CG5359 (GeneID 41222)	DRSC15780	4.01	8.56	6510
10	CG15549 (GeneID 43665)	DRSC15087	2.12	3.57	6133
11	CG14715 (GeneID 41403)	DRSC14938	13.9	10.7	6380
12	CG4982 (GeneID 39794)	DRSC10465	7.34	1.79	6557
13	Rab2 (GeneID 35577)	DRSC05017	16.3	24.1	6379
14	Rab2 (GeneID 35577)	DRSC26810	10.3	2.74	6780
15	Cyp12a4 (GeneID 42294)	DRSC16620	0.46	0.76	6527
16	Cyp12a4 (GeneID 42294)	DRSC24072	5.52	1.13	6068
17	CG32820 + CG17450 + CG32819	DRSC21803	39.2	3.73	4705
18	CG32820 + CG17450 + CG32819	DRSC22812	0.35	13.9	6012
19	CG32820 + CG17450 + CG32819	DRSC27791	3.24	7.66	6998

An excerpt from above, showing only “infection score, replicate 1”.
CG11409 (GeneID 31078) [DRSC18579]	2.09
CG11409 (GeneID 31078) [DRSC28360]	18.3
CG12093 (GeneID 38343) [DRSC08252]	11.2
CG11699 (GeneID 32101) [DRSC19419]	11
CG11699 (GeneID 32101) [DRSC27489]	9.24

The results go on:
no.	predicted target	dsRNA	infection score, replicate 1	infection score, replicate 2	cell count, replicate 1
20	CG4452 (GeneID 39069)	DRSC10422	13.8	20.6	5488
21	Nrx-1 (GeneID 42646)	DRSC16184	2.84	1.15	5951
22	CG14495 (GeneID 37056)	DRSC06466	13.3	21	6473
23	CG9168 (GeneID 38163)	DRSC08633	2.38	4.13	6183
24	CG32811 (GeneID 318222)	DRSC22649	5.86	9.6	6895
25	Tet (GeneID 38347)	DRSC08550	10.7	12.7	6362
26	Tet (GeneID 38347)	DRSC28377	14.3	11.4	1941
27	Dpck (GeneID 40846)	DRSC12575	2.21	1.7	6478
28	Edg78E (GeneID 40354)	DRSC11863	7.06	5.78	6498
29	Edg78E (GeneID 40354)	DRSC26712	16.8	10.1	5039
30	tos (GeneID 35119)	DRSC03624	32.7	16.2	5796
31	CG3328 (GeneID 37871)	DRSC04357	39.6	26.9	5596
32	CG3328 (GeneID 37871)	DRSC25998	8.74	3.21	6156
33	Obp50e (GeneID 36600)	DRSC06434	22.6	22.4	6307
34	CG9926 (GeneID 41700)	DRSC16582	10.3	4.74	6603
35	CG9926 (GeneID 41700)	DRSC29175	19.2	11.9	5675
36	CG31370 (GeneID 43060)	DRSC21453	2.62	9.91	5885
37	CG14669 (GeneID 40652)	DRSC12255	9.6	2.57	6500
38	CG14669 (GeneID 40652)	DRSC26823	10.3	9.91	6894
39	Ugt36A1 (GeneID 44058)	DRSC00748	4.11	5.41	6454
40	Ugt36A1 (GeneID 44058)	DRSC29161	6.6	13.8	5497
41	CG11149 (GeneID 33800)	DRSC02130	3.67	0.62	6509
42	mahe (GeneID 31707)	DRSC17755	0.43	26	230
43	mahe (GeneID 31707)	DRSC24030	2.43	10.4	5443
44	CG33292 (retired record) (GeneID 2768953)	DRSC22923	0.55	1.52	6563
45	CG33292 (retired record) (GeneID 2768953)	DRSC28616	23.7	5.83	6196
46	Edc3 (GeneID 39957)	DRSC10620	11.3	9.48	5883
47	Edc3 (GeneID 39957)	DRSC23994	11.4	10.4	6481
48	CG6066 (GeneID 43267)	DRSC15959	11	6.51	5982
49	CG6066 (GeneID 43267)	DRSC22228	2.08	5.47	6587
50	CG6066 (GeneID 43267)	DRSC27936	33.6	15.7	5512
51	CG14408 (GeneID 32407)	DRSC23396	1.82	2.79	6580
52	CG4641 (retired record) (GeneID 39053)	DRSC10439		7.07	354
53	CG4641 (retired record) (GeneID 39053)	DRSC24444	1.38	3.14	6095
54	Cpr73D (GeneID 39897)	DRSC11084	0.19	1.1	7384
55	Cpr73D (GeneID 39897)	DRSC26591	1.81	2.13	6344
56	CstF50 (GeneID 43734)	DRSC15434	2.94	1.3	5375
57	SCCRO4 (GeneID 40231)	DRSC10671	3.1		936
58	Arpc4 (GeneID 33864)	DRSC02917	12.4	17.3	5454
59	Arpc4 (GeneID 33864)	DRSC29608	10.3	8.51	5599
